Results published in patent publication US20200165613, “VIRUS LIKE PARTICLE” (The University of Leeds, published 2020).
Construct, isoform or probe ends are uncertain for at least one entry. Where a protein sequence is shown, tags need not be part of it.

Molecular target: T1, STNV coat protein wild-type (Satellite tobacco necrosis virus 1) (UniProt P03606)
T1 sequence (looked up, limits assumed): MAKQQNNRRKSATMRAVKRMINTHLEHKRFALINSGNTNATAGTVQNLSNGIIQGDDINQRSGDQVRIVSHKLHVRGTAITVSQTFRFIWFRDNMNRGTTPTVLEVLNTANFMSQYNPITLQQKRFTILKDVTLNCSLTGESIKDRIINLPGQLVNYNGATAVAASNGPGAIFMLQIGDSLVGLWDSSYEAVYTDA
Test: binding assay
Conditions: purified recombinant protein

AACAACAGAACAACAGGCGAAAAUCCGCAACAAUGCGUGCAGUGAAGCGCAUGAUAAAUACACAC [STNV PS2-4]
binding result (smFCS, RNase-resistant T=1 shells, lower yield than 127-mer, no collapse, label: 5' Alexa Fluor 488, variant of STNV-1 PS1-5 127-mer): binds

ACAUGCAACCAUGCACAC [B3 ACCA]
binding result (svAUC, T=1 capsids with similar efficiency to PS3, 2 mM Ca2+, variant of B3 short / PS3 ACAA): binds

CCUUUUCAAGACAUGCAACAAUGCACACAG [B3 aptamer]
binding result (smFCS, trimeric capsomer then T=1 VLP, 1 nM RNA, label: Alexa Fluor 488): binds
